Results of unrelated studies side by side (data: NIAID ChemDB).

Shared fields: growth or infection tests; species: Hepatitis C virus; cells: Huh7; read-out: EC50

Lines come from different laboratories, so protocols vary. ECn: concentration that inhibits the pathogen or its effect by n%. An empty or dashed field is not shown.

{"structure": "CNC(=O)c1c(-c2ccc(F)cc2)oc2cc(N(CCO)S(C)(=O)=O)c(C3CC3)cc12", "strain or isolate": "6a", "read by": "luciferase", "value": "0.0162 µM"}
{"structure": "CN1CCN(C(=O)Cn2c(-c3ccccc3)c(C3CCCCC3)c3sc(C(=O)O)cc32)CC1", "value": "2.7 µM"}
{"structure": "O=C(O)c1ccc2c(c1)nc(-c1ccc(OCc3ccccc3-c3ccc(Cl)cc3)cc1)n2C1CCCCC1", "read by": "replicon", "value": "3.2 µM"}
{"structure": "CC(C)N1CCC(N(C)C(=O)Cn2c(-c3ccccc3)c(C3CCCCC3)c3sc(C(=O)O)cc32)C1", "value": "0.55 µM"}
{"structure": "C[C@@]1(O)[C@H](O)[C@@H](CO)O[C@H]1c1cnn2c(N)ncnc12", "strain or isolate": "GT-1b Con1", "read by": "luciferase", "value": ">100 µM"}
{"structure": "CCNC1(C(N)=O)CCNCC1", "strain or isolate": "JFH-1", "read by": "luciferase", "value": ">10 µM"}
{"structure": "C=C[C@@H]1C[C@]1(NC(=O)[C@@H]1C[C@@H](Oc2cc(-c3ccccc3)nc3cc(OC)ccc23)CN1C(=O)[C@@H](NC(=O)OC1CCOC1)C(C)(C)C)C(=O)NS(=O)(=O)C1CC1", "strain or isolate": "1b", "read by": "replicon", "value": "<0.05 µM"}
{"structure": "C[C@@]1(O)[C@H](O)[C@@H](CO)O[C@H]1n1ccc2c(N)ncnc21", "strain or isolate": "GTab (Con1)", "read by": "luciferase", "value": "0.2 µM"}
{"structure": "C=C[C@H]1CC1(NC(=O)[C@@H]1C[C@@H](Oc2cc(-c3ccccc3)nc3cc(OC)ccc23)CN1C(=O)[C@@H](NC(=O)OC(C)(C)C)C(C)C)C(=O)O", "read by": "replicon", "value": "3.2 µM"}
{"structure": "C=C[C@@H]1C[C@]1(NC(=O)[C@@H]1C[C@@H](Oc2cc(-c3ccccc3)nc3cc(OC)ccc23)CN1C(=O)[C@@H](NC(=O)Oc1ccc(OC)cc1)C(C)(C)C)C(=O)NS(=O)(=O)C1CC1", "strain or isolate": "1b", "read by": "replicon", "value": "<0.5 µM"}
{"structure": "COC(=O)[C@H](C)NP(=O)(OC[C@H]1O[C@@H](n2ccc3c(N)ncnc32)[C@](C)(O)[C@@H]1O)Oc1ccccc1", "value": "<100 µM"}
{"structure": "C[C@H](NP(=O)(N[C@@H](C)C(=O)OC(C)(C)C)OC[C@H]1O[C@@H](n2cnc(C(N)=O)n2)[C@H](O)[C@@H]1O)C(=O)OC(C)(C)C", "read by": "replicon", "setting": "genotype 1b", "value": ">100 µM"}
{"structure": "C=CC[C@@H]1/C=C(/C)C[C@H](C)C[C@H](OC)[C@H]2O[C@@](O)(C(=O)C(=O)N3CCCC[C@H]3C(=O)O[C@H](/C(C)=C/[C@@H]3CC[C@@H](O)[C@H](OC)C3)[C@H](C)[C@@H](O)CC1=O)[C@H](C)C[C@@H]2OC", "value": "7.5 µM"}
{"structure": "NC(=O)/C(=C\\c1ccncc1)c1cccc2ccccc12", "strain or isolate": "JFH-1", "read by": "luciferase", "value": ">10 µM"}
{"structure": "CC(=O)CC[C@H]1C(=O)N[C@@H](C(C)C)C(=O)N[C@@H](Cc2cccc(O)c2)C(=O)N2CCCC(N2)C(=O)O[C@H](/C(C)=C/C=C/C(=O)N2CCCCO2)C/C=C/C=C/[C@H](O)[C@H](C)[C@H]1O", "strain or isolate": "1b Con1", "read by": "luciferase", "value": "0.06 µM"}
{"structure": "CCC[C@H](NC(=O)[C@@H]1C2CCCC2CN1C(=O)[C@@H](NC(=O)[C@@H](NC(=O)c1cnccn1)C(C)(C)C)C(C)(C)C)C(=O)C(=O)NC1CC1", "read by": "replicon", "value": "1 µM"}
{"structure": "C[C@@H]1CC[C@H]2[C@@H](C)C(=O)O[C@@H]3OC4(C)CC[C@@H]1[C@]32OO4", "read by": "replicon", "value": ">10 µM"}
{"structure": "C[C@@]1(O)[C@H](O)[C@@H](CO)O[C@H]1n1cnc2c(N)ncnc21", "strain or isolate": "GT1b", "read by": "luciferase / replicon", "value": "0.2 µM"}
{"structure": "N#Cc1c(-c2ccccc2Cl)nc(SCc2nc3ccccc3[nH]2)[nH]c1=O", "read by": "replicon / PCR", "value": "0.245 µM"}
{"structure": "NC(=O)c1cn([C@@H]2C[C@H](CO)C[C@H]2O)nn1", "value": ">320 µM"}
{"structure": "COCn1c(-c2ccccc2)c(C2CCCCC2)c2sc(C(=O)O)cc21", "value": "5.9 µM"}
{"structure": "CCC[C@H](NC(=O)[C@@H]1C2CCCC2CN1C(=O)[C@@H](NC(=O)[C@@H](NC(=O)c1cnccn1)C1CCCCC1)C(C)(C)C)C(=O)C(=O)N[C@@H](C)c1ccncc1", "read by": "replicon", "value": "0.31 µM"}
{"structure": "COc1ccc2c(OC3CC(C(=O)NC4(C(=O)O)CC4)N(C(=O)[C@@H](NC(=O)OC(C)(C)C)C(C)C)C3)cc(-c3ccccc3)nc2c1", "read by": "replicon", "value": ">10 µM"}
{"structure": "CC(C)[C@H](NC(=O)c1cnccn1)C(=O)N[C@H](C(=O)N1CC2CCCC2[C@H]1C(=O)NC(CC(F)F)C(=O)C(=O)NC1CC1)C(C)C", "read by": "replicon", "value": "3.78 µM"}
{"structure": "COc1ccc2c(OC3CC(C(=O)NC4(C(=O)NS(=O)(=O)c5ccccc5)CC4)N(C(=O)[C@@H](NC(=O)OC(C)(C)C)C(C)C)C3)cc(-c3ccccc3)nc2c1", "read by": "replicon", "value": "1.1 µM"}
{"structure": "Cc1c(N)nc([C@H](CC(N)=O)NC[C@H](N)C(N)=O)nc1C(=O)N[C@H](C(=O)N[C@H](C)[C@@H](O)[C@H](C)C(=O)N[C@H](C(=O)NCCc1nc(-c2nc(C(=O)NCCC[S+](C)C)cs2)cs1)[C@@H](C)O)C(O[C@@H]1O[C@@H](CO)[C@@H](O)[C@H](O)[C@@H]1O[C@H]1O[C@H](CO)[C@@H](O)[C@H](OC(N)=O)[C@@H]1O)c1cnc[nH]1", "read by": "luciferase", "value": "1.5 µM"}
{"structure": "C/C1=C\\CC[C@@]2(C)O[C@H]2[C@H]2OC(=O)[C@@H](CN3CCOCC3)[C@@H]2CC1", "read by": "replicon", "value": "5.41 µM"}
{"structure": "C[C@]12CC[C@H]3c4ccc(OCC(=O)O)cc4CC[C@@H]3[C@H]1CCC2=O", "strain or isolate": "JFH-1", "read by": "luciferase", "value": ">10 µM"}
{"structure": "C[C@@]1(O)[C@H](O)[C@@H](CO)O[C@H]1n1ccc2c(N)ncnc21", "value": "<100 µM"}
{"structure": "CC1CCC(C(=O)N(c2cc(C#CC(C)(C)C)sc2C(=O)O)C2CCC(O)CC2)CC1", "strain or isolate": "GT1b", "read by": "luciferase / replicon", "value": "0.0059 µM"}
{"structure": "Fc1ccccc1-c1nc2ccn(Cc3ccc(-c4ccc(C(F)(F)F)cc4C(F)(F)F)nn3)cc-2n1", "strain or isolate": "5a", "read by": "luciferase", "value": "0.104 µM"}
{"structure": "CC1=CCC[C@@]2(C)O[C@H]2[C@H]2OC(=O)[C@@H](C)[C@@H]2CC1", "read by": "replicon", "value": ">10 µM"}
{"structure": "O=C(O)/C=C/c1ccc(NC(=O)C2(NC(=O)c3ccc4c(c3)nc(-c3ccoc3)n4C3CCCCC3)CCC2)cc1", "read by": "replicon", "value": "1 µM"}
{"structure": "CN(C)C(=O)c1ccc(COc2ccc(-c3nc4cc(C(=O)O)ccc4n3C3CCCCC3)cc2)c(-c2ccc(Cl)cc2)c1", "read by": "replicon", "value": "0.37 µM"}
{"structure": "C[C@@]1(O)[C@H](O)[C@@H](CO)O[C@H]1c1ccc2c(N)ncnn12", "strain or isolate": "GT-1b Con1", "read by": "luciferase", "value": "1.6 µM"}
{"structure": "CCCC(NC(=O)[C@@H]1C2CCCC2CN1C(=O)[C@@H](NC(=O)[C@@H](CC(C1CCCCC1)C1CCCCC1)NC(=O)c1cnccn1)C(C)(C)C)C(=O)C(=O)NC1CC1", "read by": "replicon", "value": "2.81 µM"}
{"structure": "O=C(O)c1c(-c2ccccc2O)nc(SCc2nc3ccccc3[nH]2)[nH]c1=O", "read by": "replicon / PCR", "value": "0.285 µM"}
{"structure": "CCC[C@H](NC(=O)C1CC(Oc2cc(-c3ccccc3)nc3cc(OC)ccc23)CN1C(=O)[C@@H](NC(=O)OC(C)(C)C)C(C)C)C(=O)NS(C)(=O)=O", "read by": "replicon", "value": ">10 µM"}
{"structure": "CCC[C@H](NC(=O)[C@@H]1C2CCCC2CN1C(=O)[C@@H](NC(=O)[C@@H](NC(=O)c1cnccn1)C1CCCCC1)C(C)(C)C)C(=O)C(=O)N[C@@H](C)CC", "read by": "replicon", "value": "0.89 µM"}
{"structure": "C[C@@]1(O)[C@H](O)[C@@H](CO)O[C@H]1c1ccc2c(=O)[nH]c(N)nn12", "strain or isolate": "GT-1b Con1", "read by": "luciferase", "value": ">100 µM"}
{"structure": "CCC[C@H](NC(=O)C1CC(Oc2cc(-c3ccccc3)nc3cc(OC)ccc23)CN1C(=O)[C@@H](NC(=O)OC(C)(C)C)C(C)C)C(=O)NCc1ccccc1", "read by": "replicon", "value": ">10 µM"}
{"structure": "O=C(Nc1cccc([N+](=O)[O-])c1)c1cccc(C(=O)Nc2cccc([N+](=O)[O-])c2)c1", "strain or isolate": "JFH-1", "read by": "luciferase", "value": ">10 µM"}
{"structure": "O=C(O)c1ccc2c(c1)nc(-c1ccc(OCc3cc(N4CCCC4=O)ccc3-c3ccc(Cl)cc3)cc1F)n2C1CCCCC1", "strain or isolate": "GT1b", "read by": "luciferase / replicon", "value": "0.2571 µM"}
{"structure": "C=C[C@@H]1C[C@]1(NC(=O)[C@@H]1C[C@@H](Oc2cc(-c3ccccc3)nc3cc(OC)ccc23)CN1C(=O)[C@@H](NC(=O)CF)C(C)(C)C)C(=O)NS(=O)(=O)C1CC1", "strain or isolate": "1b", "read by": "replicon", "value": "<0.05 µM"}
{"structure": "C/C1=C\\CC[C@@]2(C)O[C@H]2[C@H]2OC(=O)[C@@H](CN(C)C)[C@@H]2CC1", "read by": "replicon", "value": "2.22 µM"}
{"structure": "Fc1ccccc1-c1nc2ccn(Cc3ccc(-c4ccc(C(F)(F)F)cc4C(F)(F)F)nn3)cc-2n1", "strain or isolate": "GT2a", "read by": "luciferase / replicon", "value": "10.96 µM"}
{"structure": "N#Cc1c(-c2ccc(F)cc2)nc(SCc2nc3ccccc3[nH]2)[nH]c1=O", "read by": "replicon / PCR", "value": "0.231 µM"}
{"structure": "C[C@@]1(O)[C@H](O)[C@@H](CO)O[C@H]1n1cnc2c(=O)[nH]c(N)nc21", "value": "<100 µM"}
{"structure": "C[C@@]1(O)[C@H](O)[C@@H](CO)O[C@H]1n1cnc2c(N)ncnc21", "strain or isolate": "2a", "read by": "luciferase", "value": "0.7987 µM"}
{"structure": "C=C[C@@H]1C[C@]1(NC(=O)[C@@H]1C[C@@H](Oc2cc(-c3ccccc3)nc3cc(OC)ccc23)CN1C(=O)[C@@H](NC(=O)OC(C)(C)C)C(C)(C)C)C(=O)NS(=O)(=O)c1ccccc1C(=O)OC", "strain or isolate": "1b", "read by": "replicon", "value": "<0.5 µM"}
{"structure": "NC(=O)c1cn([C@@H]2C[C@H](CCP(=O)(O)O)C[C@H]2O)nn1", "value": ">320 µM"}
{"structure": "Nc1ncnc2c1ncn2[C@@H]1O[C@H](OCP(=O)(O)O)[C@@H](O)[C@H]1O", "read by": "replicon", "value": "65 µM"}
{"structure": "COC(=O)[C@H](C)NP(=O)(OC[C@H]1O[C@@H](n2ccc3c(N)nc(N)nc32)[C@](C)(O)[C@@H]1O)Oc1ccccc1", "value": "<100 µM"}
{"structure": "COc1c(C)c2c(c(O)c1C/C=C(\\C)CCC(=O)OCCN1CCOCC1)C(=O)OC2", "value": "0.8 µM"}
{"structure": "C/C1=C\\CC[C@@]2(C)O[C@H]2[C@H]2OC(=O)[C@@H](CSCCO)[C@@H]2CC1", "read by": "replicon", "value": ">10 µM"}
{"structure": "O=C(O)c1c(-c2ccccc2)nc(SCc2nc3ccccc3[nH]2)[nH]c1=O", "read by": "replicon / PCR", "value": "0.465 µM"}
{"structure": "Cc1ccc([N+](=O)[O-])cc1NC(=O)Nc1onc(C)c1C", "strain or isolate": "JFH-1", "read by": "luciferase", "value": ">10 µM"}
{"structure": "C/C1=C\\CC[C@@]2(C)O[C@H]2[C@H]2OC(=O)[C@@H](CN3CCCCCC3)[C@@H]2CC1", "read by": "replicon", "value": "2.05 µM"}
{"structure": "COC(=O)c1cn([C@@H]2C[C@H](CCP(=O)(O)O)C[C@H]2O)nn1", "value": ">320 µM"}
{"structure": "CCC[C@H](NC(=O)C1CC(Oc2cc(-c3ccccc3)nc3cc(OC)ccc23)CN1C(=O)[C@@H](NC(=O)OC(C)(C)C)C(C)C)C(=O)NS(=O)(=O)CCc1ccccc1", "read by": "replicon", "value": ">10 µM"}

Repeating the final 6 entries:

structure | strain or isolate | read by | setting | value
C/C1=C\CC[C@@]2(C)O[C@H]2[C@H]2OC(=O)[C@@H](CSCCO)[C@@H]2CC1 | - | replicon | - | >10 µM
O=C(O)c1c(-c2ccccc2)nc(SCc2nc3ccccc3[nH]2)[nH]c1=O | - | replicon / PCR | - | 0.465 µM
Cc1ccc([N+](=O)[O-])cc1NC(=O)Nc1onc(C)c1C | JFH-1 | luciferase | - | >10 µM
C/C1=C\CC[C@@]2(C)O[C@H]2[C@H]2OC(=O)[C@@H](CN3CCCCCC3)[C@@H]2CC1 | - | replicon | - | 2.05 µM
COC(=O)c1cn([C@@H]2C[C@H](CCP(=O)(O)O)C[C@H]2O)nn1 | - | - | - | >320 µM
CCC[C@H](NC(=O)C1CC(Oc2cc(-c3ccccc3)nc3cc(OC)ccc23)CN1C(=O)[C@@H](NC(=O)OC(C)(C)C)C(C)C)C(=O)NS(=O)(=O)CCc1ccccc1 | - | replicon | - | >10 µM